Assay results taken from ChEMBL document CHEMBL1132253, “Potent inhibition of influenza sialidase by a benzoic acid containing a 2-pyrrolidinone substituent” (J Med Chem, 1999).

Biological target: Neuraminidase (Influenza A virus (A/Puerto Rico/8/1934(H1N1)), UniProt P03468)
Experiment: In vitro inhibitory activity against H1N9 Influenza A Neuraminidase.

Work on `N=C(N)Nc1cc(C(=O)O)ccc1N1CCCC1=O` yielded an IC50 of 250 µM.
